Pooled drug test results. Numbers come from NIAID ChemDB, via PubChem.

All rows: tests in culture; organism: Mycobacterium avium

Conditions beyond the fields shown may differ between rows.

Cc1c(CN2CCSCC2)cc(-c2ccccc2)n1-c1ccc(F)cc1 ; read-out: MIC ; strain: 103317 ; value: 2 µg/mL
CN[C@@H]1[C@H](O[C@H]2[C@H](O[C@H]3[C@H](O)[C@@H](O)[C@H](N=C(N)N)[C@@H](O)[C@@H]3N=C(N)N)O[C@@H](C)[C@]2(O)C=O)O[C@@H](CO)[C@H](O)[C@H]1O ; read-out: Mean MIC ; strain: ATCC 25291 ; value: 1.88 µg/mL
CC(C)N=c1cc2n(-c3ccc(Cl)cc3)c3ccccc3nc-2cc1Nc1ccc(Cl)cc1 ; read-out: MIC ; strain: 3011 ; value: 0.12 µg/mL
CCCCCCCC(CCCCCCC)CC(=O)O ; read-out: MIC ; value: 2000 µM
O=c1[nH]c2ccccc2c(=O)n1-c1ccc(Cl)c(Cl)c1 ; read-out: MIC ; strain: MY330/88 ; value: >125 µM
NC(=S)c1cc(SCc2cccc3ccccc23)ccn1 ; read-out: MIC ; strain: MY330/88 ; value: >32 µM
CO[C@H]1/C=C/O[C@@]2(C)Oc3c(C)c(O)c4c(O)c(c5c(c4c3C2=O)NC2(CCN(CC(C)C)CC2)N=5)=NC(=O)/C(C)=C\C=C\[C@H](C)[C@H](O)[C@@H](C)[C@@H](O)[C@@H](C)[C@H](OC(C)=O)[C@@H]1C ; read-out: MIC90 ; strain: Clinical isolate ; value: >0.5 µg/mL
O=C(O)c1cn(C2CC2)c2c(F)c(N3CCN4CCC3C4)c(F)cc2c1=O ; read-out: MIC ; strain: LR114R ; value: 0.06 µg/mL
CO[C@H]1/C=C/O[C@@]2(C)Oc3c(C)c(O)c4c(O)c(c5c(c4c3C2=O)NC2(CCN(CC(C)C)CC2)N=5)=NC(=O)/C(C)=C\C=C\[C@H](C)[C@H](O)[C@@H](C)[C@@H](O)[C@@H](C)[C@H](OC(C)=O)[C@@H]1C ; read-out: MIC ; strain: 6-12 ; value: <0.15 µg/mL
CCCCCCNC(=O)Nc1ccc(S(=O)(=O)Nc2cc(C)on2)cc1 ; method: broth dilution / absorbance ; read-out: MIC100 ; strain: 330/88 ; conditions: 21 d ; value: 250 µM
CC(C)(C)n1cc(C(=O)O)c(=O)c2cc(F)c(N3CCNCC3)nc21 ; read-out: MIC ; strain: PI2/8 ; value: 0.12 µg/mL
NCC[C@H](O)C(=O)N[C@@H]1C[C@H](N)[C@@H](O[C@H]2O[C@H](CN)[C@@H](O)[C@H](O)[C@H]2O)[C@H](O)[C@H]1O[C@H]1O[C@H](CO)[C@@H](O)[C@H](N)[C@H]1O ; read-out: MIC50 ; strain: 9 isolates (HIV+) ; value: 64 µg/mL
CCCCc1cnc(C(=O)/C=C/c2ccc(Br)cc2)cn1 ; method: absorbance ; read-out: MIC ; strain: Chester ; value: >50 µg/mL
CNC(C)C1CCN(c2c(F)c(N)c3c(=O)c(C(=O)O)cn(C4CC4)c3c2OC)C1 ; read-out: MIC ; strain: PI4/44 ; value: 8 µg/mL
O=C(/C=C/c1ccc(Br)cc1)c1cnccn1 ; method: absorbance ; read-out: MIC ; strain: Chester ; value: >100 µg/mL
CO[C@H]1/C=C/O[C@@]2(C)Oc3c(C)c(O)c4c(O)c(c5c(c4c3C2=O)NC2(CCN(CC(C)C)CC2)N=5)=NC(=O)/C(C)=C\C=C\[C@H](C)[C@H](O)[C@@H](C)[C@@H](O)[C@@H](C)[C@H](OC(C)=O)[C@@H]1C ; read-out: MIC ; strain: Isolate 90-0969 ; value: >1 µg/mL
CC(C)(C)c1cnc(C(=O)/C=C/c2ccc(Br)cc2)cn1 ; method: absorbance ; read-out: MIC ; strain: Chester ; value: >50 µg/mL
CCC(C(=O)O)c1ccccc1 ; read-out: MIC ; value: >2000 µM
Cc1cc(NS(=O)(=O)c2ccc(NC(=O)N3CCC3)cc2)no1 ; method: broth dilution / absorbance ; read-out: MIC100 ; strain: 330/88 ; conditions: 21 d ; value: 125 µM
N[C@@H]1CONC1=O ; read-out: MIC ; strain: 3011-C clarithromycin-resistant ; value: 8 µg/mL
CCCCCCn1c(-c2ccc(Cl)cc2)cc(CN2CCN(C)CC2)c1C ; read-out: MIC ; strain: 103317 ; value: >64 µg/mL
CN[C@@H]1[C@@H](O)[C@@H](O[C@@H]2[C@@H](O)[C@H](O[C@H]3O[C@H](CN)CC[C@H]3N)[C@@H](N)C[C@H]2N)OC[C@]1(C)O ; read-out: MIC ; strain: SN 304 ; value: >32 µg/mL
NNC(=O)c1ccncc1 ; read-out: Median MIC ; strain: ATCC 25291 ; value: >32 µg/mL
O=C(/C=C/c1ccc(Cl)cc1)c1cnccn1 ; method: absorbance ; read-out: MIC ; strain: Chester ; value: 100 µg/mL
O=C(O)c1cccc2oc3ccccc3c(=O)c12 ; read-out: MIC ; strain: SN 304 ; value: >32 µg/mL
CC(C)=CCC1=C(O)c2ccccc2C(=O)C1=O ; read-out: MIC ; strain: MAC104 ; value: 100 µg/mL
C[C@@H]1CN(c2c(F)c(N)c3c(=O)c(C(=O)O)cn(C4CC4)c3c2F)C[C@H](C)N1 ; read-out: MIC90 ; strain: 14 strains ; value: 4 µg/mL
O=c1oc2ccccc2c(=O)n1-c1ccc([N+](=O)[O-])cc1 ; read-out: MIC ; strain: MY330/88 ; value: 31 µM
O=C1C=CC(=O)c2c(O)cccc21 ; read-out: MBC ; strain: MAC104 ; value: 12.5 µg/mL
O=c1oc2ccccc2c(=O)n1-c1ccc(Cl)cc1 ; read-out: MIC ; strain: MY330/88 ; value: 62 µM
CC(C)c1cnc(C(=O)/C=C/c2ccc(Br)cc2)cn1 ; method: absorbance ; read-out: MIC ; strain: Chester ; value: >100 µg/mL
COc1ccc(NC(=O)c2ccccc2O)cc1 ; read-out: MIC ; strain: MY330/88 ; value: 125 µM
N[C@H]1CCN(c2nc3c(cc2F)c(=O)c(C(=O)O)cn3C2CC2)C1 ; read-out: MIC ; strain: I ; value: 4 µg/mL
Cc1c(CN2CCOCC2)c(CN2CCOCC2)c(C)n1C1CCCCC1 ; read-out: MIC ; strain: 103317 ; value: >64 µg/mL
O=C(O)c1ccc2c(=O)c3cc([N+](=O)[O-])ccc3oc2c1 ; read-out: MIC ; strain: SN 304 ; value: >32 µg/mL
CO[C@H]1/C=C/O[C@@]2(C)Oc3c(C)c(O)c4c(O)c(c5c(c4c3C2=O)NC2(CCN(CC(C)C)CC2)N=5)=NC(=O)/C(C)=C\C=C\[C@H](C)[C@H](O)[C@@H](C)[C@@H](O)[C@@H](C)[C@H](OC(C)=O)[C@@H]1C ; read-out: MBC ; strain: 211-5 ; value: 16 µg/mL
Cc1ccc2nc(SCc3ccccn3)[nH]c2c1 ; read-out: MIC ; strain: MY330/88 ; value: 500 µM
O=C(O)c1ccc2c(=O)c3ccccc3oc2c1C(=O)O ; read-out: MIC ; strain: SN 304 ; value: >32 µg/mL
C[C@@H]1CN(c2c(F)c(N)c3c(=O)c(C(=O)O)cn(C4CC4)c3c2F)C[C@H](C)N1 ; read-out: Median MIC ; strain: ATCC 25291 ; value: 3 µg/mL
Cc1c(CN2CCSCC2)cc(-c2ccc(F)cc2)n1-c1ccc(F)cc1 ; read-out: MIC ; strain: 103317 ; value: 16 µg/mL
CC1=CC(=O)c2c(O)cccc2C1=O ; read-out: MIC ; strain: MAC104 ; value: 12.5 µg/mL
CC[C@H]1OC(=O)[C@H](C)[C@@H](O[C@H]2C[C@@](C)(OC)[C@@H](O)[C@H](C)O2)[C@H](C)[C@@H](O[C@@H]2O[C@H](C)C[C@H](N(C)C)[C@H]2O)[C@](C)(OC)C[C@@H](C)C(=O)[C@H](C)[C@@H](O)[C@]1(C)O ; read-out: MIC ; strain: 101 ; value: 2 µg/mL
Oc1ccc(O)cc1 ; read-out: MIC ; strain: MAC104 ; value: 1600 µg/mL
CC[C@@H](CO)NCCN[C@@H](CC)CO ; read-out: MIC50 ; strain: Clinical isolate ; value: 1 µg/mL
CC(=O)O[C@H]1C[C@@]2(C)[C@@H](C[C@@H](O)[C@H]3[C@@]4(C)CC[C@@H](O)[C@@H](C)[C@@H]4CC[C@@]32C)/C1=C(\CCC=C(C)C)C(=O)O ; read-out: MIC90 ; strain: 22 strains ; value: 64 µg/mL
NCC[C@H](O)C(=O)N[C@@H]1C[C@H](N)[C@@H](O[C@H]2O[C@H](CN)[C@@H](O)[C@H](O)[C@H]2O)[C@H](O)[C@H]1O[C@H]1O[C@H](CO)[C@@H](O)[C@H](N)[C@H]1O ; read-out: MIC90 ; strain: Clinical isolate ; value: >16 µg/mL
CCCCCCCCCCNC(=O)Nc1ccc(S(=O)(=O)Nc2cc(C)on2)cc1 ; method: broth dilution / absorbance ; read-out: MIC100 ; strain: 330/88 ; conditions: 21 d ; value: 125 µM
CC[C@@H](CO)NCCN[C@@H](CC)CO ; read-out: MIC90 ; strain: 9 isolates (HIV+) ; value: >16 µg/mL
CC1CN(c2cc3c(cc2F)c(=O)c(C(=O)O)cn3-c2ccc(F)cc2F)CCN1 ; read-out: MIC50 ; strain: 22 strains ; value: 2 µg/mL
c1ccc(CSc2nc3ccccc3[nH]2)nc1 ; read-out: MIC ; strain: MY330/88 ; value: 500 µM
CN[C@@H]1[C@@H](O)[C@@H](O[C@@H]2[C@@H](O)[C@H](O[C@H]3O[C@H](CN)CC[C@H]3N)[C@@H](N)C[C@H]2N)OC[C@]1(C)O ; read-out: Mean MIC ; strain: ATCC 25291 ; value: 9.3 µg/mL
CCCCCCCNC(=O)Nc1ccc(S(=O)(=O)Nc2cc(C)on2)cc1 ; method: broth dilution / absorbance ; read-out: MIC100 ; strain: 330/88 ; conditions: 14 d ; value: 32 µM
CCc1cc(C(N)=S)ccn1 ; read-out: MIC ; strain: 1435-C clarithromycin-resistant ; value: >8 µg/mL
Cc1ccc2oc3ccccc3c(=O)c2c1 ; read-out: MIC ; strain: SN 304 ; value: >32 µg/mL
Cc1c(CN2CCN(C)CC2)c(CN2CCN(C)CC2)c(-c2ccc(Cl)cc2)n1Cc1ccccc1 ; read-out: MIC ; strain: 103317 ; value: >64 µg/mL
O=C(/C=C/c1ccccc1Cl)c1cnccn1 ; method: absorbance ; read-out: MIC ; strain: Chester ; value: >100 µg/mL
NC(=S)c1cc(SCc2cccnc2)ccn1 ; read-out: MIC ; strain: MY330/88 ; value: >62.5 µM
Cc1c(CN2CCN(C)CC2)cc(-c2ccc(Cl)cc2)n1C1CCCCC1 ; read-out: MIC ; strain: 103317 ; value: >64 µg/mL
CC[C@H]1OC(=O)[C@H](C)[C@@H](O[C@H]2C[C@@](C)(OC)[C@@H](O)[C@H](C)O2)[C@H](C)[C@@H](O[C@@H]2O[C@H](C)C[C@H](N(C)C)[C@H]2O)[C@](C)(O)C[C@@H](C)CN(C)[C@H](C)[C@@H](O)[C@]1(C)O ; read-out: MIC ; strain: 1435 ; value: 16 µg/mL
Cc1c(CN2CCN(C)CC2)c(CN2CCN(C)CC2)c(-c2ccc(Cl)cc2)n1C1CCCCC1 ; read-out: MIC ; strain: 103317 ; value: >64 µg/mL
NC(=S)c1cc(SCc2ccccn2)ccn1 ; read-out: MIC ; strain: MY330/88 ; value: 250 µM
CCn1cc(C(=O)O)c(=O)c2cc(F)c(N3CCNCC3)nc21 ; read-out: MIC90 ; strain: 22 strains ; value: 128 µg/mL
CCCc1cnc(C(=O)/C=C/c2ccccc2F)cn1 ; method: absorbance ; read-out: MIC ; strain: Chester ; value: >100 µg/mL
CCn1cc(C(=O)O)c(=O)c2cc(F)c(N3CCC(CNCCO)C3)c(F)c21 ; read-out: MIC90 ; strain: 14 strains ; value: 32 µg/mL
CCCCCCCCCCCCC(C(=O)O)c1ccccc1 ; read-out: MIC ; value: 1000 µM
CNn1cc(C(=O)O)c(=O)c2cc(F)c(N3CCN(C)CC3)cc21 ; read-out: MIC90 ; strain: 22 strains ; value: 128 µg/mL
NC1CCN(c2c(F)cc3c(=O)c(C(=O)O)cn(C4CC4)c3c2Cl)C1 ; read-out: MIC ; strain: I ; value: 2 µg/mL
CC1CN(c2c(F)c(N)c3c(=O)c(C(=O)O)cn(C4CC4)c3c2F)CCN1C ; read-out: MIC ; strain: LR114F ; value: 0.12 µg/mL

Again, the opening 4 rows:

| structure | method | read-out | strain | conditions | value |
|---|---|---|---|---|---|
| Cc1c(CN2CCSCC2)cc(-c2ccccc2)n1-c1ccc(F)cc1 |  | MIC | 103317 |  | 2 µg/mL |
| CN[C@@H]1[C@H](O[C@H]2[C@H](O[C@H]3[C@H](O)[C@@H](O)[C@H](N=C(N)N)[C@@H](O)[C@@H]3N=C(N)N)O[C@@H](C)[C@]2(O)C=O)O[C@@H](CO)[C@H](O)[C@H]1O |  | Mean MIC | ATCC 25291 |  | 1.88 µg/mL |
| CC(C)N=c1cc2n(-c3ccc(Cl)cc3)c3ccccc3nc-2cc1Nc1ccc(Cl)cc1 |  | MIC | 3011 |  | 0.12 µg/mL |
| CCCCCCCC(CCCCCCC)CC(=O)O |  | MIC |  |  | 2000 µM |

A number after MIC or MFC names an inhibition level or a share of isolates. Blank or dashed fields: not listed here.